{
  "sequences": {"note": "Amino acid sequences for entries named in this document (tags omitted). A change or cut given only in a name is not applied to a line headed by its entry. Residues count along the entry.", "UniProt Q9GZZ6, 25-450 limits assumed": "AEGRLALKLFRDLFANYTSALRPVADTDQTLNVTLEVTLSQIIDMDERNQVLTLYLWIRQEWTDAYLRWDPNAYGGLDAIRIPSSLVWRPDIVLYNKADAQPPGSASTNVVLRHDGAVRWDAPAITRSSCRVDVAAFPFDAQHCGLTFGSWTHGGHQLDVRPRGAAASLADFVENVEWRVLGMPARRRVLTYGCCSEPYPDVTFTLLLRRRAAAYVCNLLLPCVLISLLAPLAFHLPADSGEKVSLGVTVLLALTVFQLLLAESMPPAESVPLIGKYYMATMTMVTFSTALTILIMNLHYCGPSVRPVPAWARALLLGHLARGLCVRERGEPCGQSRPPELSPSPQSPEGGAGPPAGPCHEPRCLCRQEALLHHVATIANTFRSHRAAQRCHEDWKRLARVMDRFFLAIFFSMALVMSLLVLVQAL", "UniProt Q9UGM1, 26-479 limits assumed": "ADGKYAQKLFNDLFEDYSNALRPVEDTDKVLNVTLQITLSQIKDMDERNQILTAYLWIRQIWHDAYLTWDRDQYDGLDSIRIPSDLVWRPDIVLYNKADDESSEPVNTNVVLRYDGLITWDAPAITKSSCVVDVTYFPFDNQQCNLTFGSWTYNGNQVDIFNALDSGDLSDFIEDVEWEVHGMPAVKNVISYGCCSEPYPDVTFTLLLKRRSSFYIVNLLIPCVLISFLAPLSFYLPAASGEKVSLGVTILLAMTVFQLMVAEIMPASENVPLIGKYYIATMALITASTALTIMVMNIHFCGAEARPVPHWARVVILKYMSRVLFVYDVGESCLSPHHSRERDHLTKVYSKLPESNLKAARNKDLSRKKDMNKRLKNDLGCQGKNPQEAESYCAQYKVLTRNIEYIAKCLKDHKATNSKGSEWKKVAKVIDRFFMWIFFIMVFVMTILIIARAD", "UniProt P09483, 31-630 limits assumed": "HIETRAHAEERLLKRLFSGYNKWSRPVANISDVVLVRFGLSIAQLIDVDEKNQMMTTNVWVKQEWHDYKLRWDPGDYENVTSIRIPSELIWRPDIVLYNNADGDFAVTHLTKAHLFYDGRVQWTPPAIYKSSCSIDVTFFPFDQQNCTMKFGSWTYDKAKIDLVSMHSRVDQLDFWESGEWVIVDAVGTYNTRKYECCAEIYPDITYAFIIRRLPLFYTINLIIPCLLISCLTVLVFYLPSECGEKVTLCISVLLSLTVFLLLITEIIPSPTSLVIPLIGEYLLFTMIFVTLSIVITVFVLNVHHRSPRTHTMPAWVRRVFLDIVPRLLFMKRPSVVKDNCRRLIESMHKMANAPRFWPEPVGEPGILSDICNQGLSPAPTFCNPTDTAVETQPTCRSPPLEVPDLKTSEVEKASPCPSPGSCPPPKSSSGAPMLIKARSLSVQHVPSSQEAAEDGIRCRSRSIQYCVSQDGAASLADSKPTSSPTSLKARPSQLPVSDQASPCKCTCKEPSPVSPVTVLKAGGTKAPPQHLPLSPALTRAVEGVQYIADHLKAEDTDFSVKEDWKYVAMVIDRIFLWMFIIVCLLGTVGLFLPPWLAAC", "UniProt P12390, 25-500 limits assumed": "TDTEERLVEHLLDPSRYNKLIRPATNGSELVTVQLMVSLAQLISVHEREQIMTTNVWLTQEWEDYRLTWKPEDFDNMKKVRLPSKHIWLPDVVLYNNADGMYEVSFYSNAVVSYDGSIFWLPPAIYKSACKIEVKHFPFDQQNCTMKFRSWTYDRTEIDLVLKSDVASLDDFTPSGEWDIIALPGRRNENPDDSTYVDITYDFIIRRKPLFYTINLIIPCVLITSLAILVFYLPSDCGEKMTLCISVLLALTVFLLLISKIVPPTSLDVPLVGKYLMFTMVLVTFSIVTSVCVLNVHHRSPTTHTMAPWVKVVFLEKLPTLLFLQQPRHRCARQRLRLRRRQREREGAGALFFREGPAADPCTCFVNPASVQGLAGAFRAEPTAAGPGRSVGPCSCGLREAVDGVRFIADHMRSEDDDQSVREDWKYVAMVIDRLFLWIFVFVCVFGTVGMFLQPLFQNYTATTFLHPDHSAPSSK", "UniProt P11230, 24-501 partner limits assumed": "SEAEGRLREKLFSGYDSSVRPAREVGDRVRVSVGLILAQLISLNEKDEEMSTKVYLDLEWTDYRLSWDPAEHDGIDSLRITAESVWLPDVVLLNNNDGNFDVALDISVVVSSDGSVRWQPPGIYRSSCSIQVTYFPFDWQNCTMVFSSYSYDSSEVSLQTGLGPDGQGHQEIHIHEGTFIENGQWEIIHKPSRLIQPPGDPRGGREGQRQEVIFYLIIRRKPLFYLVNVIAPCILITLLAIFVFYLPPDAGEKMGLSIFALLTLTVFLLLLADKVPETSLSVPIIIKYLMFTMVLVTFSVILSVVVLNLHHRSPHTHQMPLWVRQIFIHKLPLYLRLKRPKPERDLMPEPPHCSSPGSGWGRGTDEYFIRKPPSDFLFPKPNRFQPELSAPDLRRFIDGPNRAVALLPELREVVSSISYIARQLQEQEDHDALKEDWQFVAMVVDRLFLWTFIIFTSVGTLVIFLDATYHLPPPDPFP", "UniProt Q07001, 22-517 limits assumed": "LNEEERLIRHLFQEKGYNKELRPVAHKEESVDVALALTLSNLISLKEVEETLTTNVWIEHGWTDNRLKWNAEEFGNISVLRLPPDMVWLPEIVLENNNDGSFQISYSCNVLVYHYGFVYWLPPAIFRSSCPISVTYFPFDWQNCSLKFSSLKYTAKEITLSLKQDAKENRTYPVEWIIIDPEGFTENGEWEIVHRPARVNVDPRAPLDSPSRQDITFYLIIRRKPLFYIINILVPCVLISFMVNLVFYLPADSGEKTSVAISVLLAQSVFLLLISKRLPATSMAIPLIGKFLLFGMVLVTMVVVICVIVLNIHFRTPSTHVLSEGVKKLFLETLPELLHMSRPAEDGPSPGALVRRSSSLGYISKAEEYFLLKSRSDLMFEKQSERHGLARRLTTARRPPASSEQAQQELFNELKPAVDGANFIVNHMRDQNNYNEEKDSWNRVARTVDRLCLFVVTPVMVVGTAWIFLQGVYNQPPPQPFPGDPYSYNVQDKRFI"},
  "source": "paper PMC7150935",
  "about": "(Toxins, 2020)",
  "key": {"human α9α10 nAChR": {"target": "human α9α10 nAChR (Homo sapiens, UniProt Q9GZZ6+Q9UGM1)", "assay": "Block of ACh-gated currents (IACh) in voltage-clamped X. laevis oocytes, hα9α10", "conditions": "10 μM, highest concentration tested"}, "[1]": {"system": "R. pipiens cutaneous pectoralis (CP) muscle", "assay": "Extracellular recording, synaptic responses in μ-PIIIA-treated R. pipiens CP muscle", "conditions": "100 μM; muscle treated with μ-PIIIA"}, "[2]": {"system": "mouse levator auris longus (LAL) muscle", "assay": "Extracellular recording, indirectly-evoked action potential, mouse LAL muscle", "conditions": "10 μM"}, "[3]": {"system": "neuromuscular junction of Rana pipiens", "assay": "Block of synaptic transmission at R. pipiens neuromuscular junction (original characterization)", "conditions": "not previously reported"}, "[4]": {"system": "nAChRs in X. laevis LP muscle", "assay": "Intracellular recording of EPSPs, MEPSPs and ACh-evoked PSPs, X. laevis LP muscle", "conditions": "for block of EPSPs: nerve-stimulation evoked, μ-PIIIA-pretreated; for block of MEPSPs: spontaneous"}, "[5]": {"system": "NMJs of embryonic zebrafish muscle (αβδγ nAChRs)", "assay": "Predicted protection of embryonic muscle NMJs against fluorescent α-BgTX", "conditions": "no experiments on embryonic zebrafish muscle performed"}, "rat α4β2 nAChR": {"target": "rat α4β2 nAChR (Rattus norvegicus, UniProt P09483+P12390)", "assay": "Block of ACh-gated currents (IACh) in voltage-clamped X. laevis oocytes, rα4β2", "conditions": "10 μM, highest concentration tested"}, "[6]": {"system": "nAChRs at R. pipiens CP muscle NMJs", "assay": "Fluorescence imaging of TMR α-BgTX binding at R. pipiens CP NMJs", "conditions": "10 μM αM-MIIIJ + 1 μg/mL TMR α-BgTX (reserved solution)"}, "[7]": {"system": "X. laevis longitudinal pectoralis (LP) muscle (V-gated Na channels)", "assay": "Extracellular recording, action potentials evoked by direct stimulation, X. laevis LP muscle", "conditions": "five-times higher concentration than 10 μM"}, "[8]": {"system": "nAChRs at goldfish IC muscle NMJs", "assay": "Fluorescence imaging of TMR α-BgTX binding at goldfish IC NMJs", "conditions": "10 μM αM-MIIIJ; 1 μg/mL TMR α-BgTX, 10 min (Treatment I)"}, "muscle nAChR": {"system": "muscle nAChR", "assay": "Ion-channel target of paralytic conotoxins: muscle nAChR", "conditions": "this report"}, "human αβδε nAChR": {"target": "human αβδε nAChR (Homo sapiens, UniProt P02708+P11230+Q04844+Q07001)", "assay": "Block of ACh-gated currents (IACh) in voltage-clamped X. laevis oocytes, hαβδε", "conditions": "adult human muscle nAChR in oocytes"}, "[9]": {"system": "nAChRs in goldfish intercostal (IC) muscle", "assay": "Intracellular recording of MEPSPs, goldfish intercostal (IC) muscle", "conditions": "1 μM; fibers D–F; no MEPSPs above noise"}, "[10]": {"system": "X. laevis longitudinal pectoralis (LP) muscle", "assay": "Extracellular recording, synaptic responses in μ-PIIIA-treated X. laevis LP muscle", "conditions": "10 μM; muscle treated with μ-PIIIA (10 μM)"}, "[11]": {"system": "R. pipiens cutaneous pectoralis (CP) muscle", "assay": "Extracellular recording, indirectly-evoked action potentials, R. pipiens CP muscle", "conditions": "100 μM"}, "[12]": {"system": "nACh receptors of X. laevis and goldfish muscles", "assay": "Concentration-dependent block of synaptically- and ACh-evoked responses, combined frog and fish NMJs", "conditions": "read-out: IC50 (aggregate estimate); estimated to be within about a factor of two of 0.1 μM; EPSPs, MEPSPs, ACh-evoked responses combined; Langmuir curves"}, "[13]": {"system": "X. laevis longitudinal pectoralis (LP) muscle", "assay": "Extracellular recording, action potentials evoked by motor-nerve (indirect) stimulation, X. laevis LP muscle", "conditions": "10 μM; replicated in three other preparations"}},
  "note": "pIC50: −log10 of the molar value.",
  "data": [
    {"compound": "CC[C@H](C)[C@@H]1NC(=O)[C@H](CC(C)C)NC(=O)[C@H](CCCNC(=N)N)NC(=O)[C@H](CC(=O)O)NC(=O)[C@H](CCCNC(=N)N)NC(=O)[C@H](Cc2ccccc2)NC(=O)[C@H](Cc2ccc(O)cc2)NC(=O)[C@H](CC(C)C)NC(=O)[C@@H]2CCCN2C(=O)[C@@H]2CSSC[C@@H](C(=O)O)NC(=O)[C@@H]3CSSC[C@H](NC(=O)[C@H](CCCCN)NC(=O)[C@@H]4CCC(=O)N4)C(=O)N[C@@H](CSSC[C@H](NC1=O)C(=O)N1CCC[C@H]1C(=O)N3)C(=O)N[C@@H](CO)C(=O)NCC(=O)NCC(=O)N[C@@H](CO)C(=O)N2", "note": "[αM-MIIIJ]", "values": [
      {"measurement": "block of IACh", "setting": "human α9α10 nAChR", "result": "failed to block IACh"},
      {"measurement": "pIC50", "setting": "zebrafish αβδε nAChR", "result": 7.24},
      {"measurement": "effect on synaptic responses", "setting": "[1]", "result": "essentially unaffected"},
      {"measurement": "block of action potentials evoked by motor-nerve stimulation", "setting": "[2]", "result": "blocked muscle action potentials"},
      {"measurement": "block of synaptic transmission", "setting": "[3]", "result": "inactive in blocking synaptic transmission"},
      {"measurement": "block of responses to iontophoretically-applied ACh", "setting": "[4]; 0.2 μM", "result": "> 50", "unit": "%"},
      {"measurement": "block of EPSPs", "setting": "[4]; 0.2 μM", "result": "> 50", "unit": "%"},
      {"measurement": "block of MEPSPs", "setting": "[4]; 0.2 μM", "result": "> 50", "unit": "%"},
      {"measurement": "block of responses to iontophoretically-applied ACh", "setting": "[4]; 10 μM", "result": 100, "unit": "%"},
      {"measurement": "block of EPSPs", "setting": "[4]; 10 μM", "result": 100, "unit": "%"},
      {"measurement": "block of MEPSPs", "setting": "[4]; 10 μM", "result": 100, "unit": "%"},
      {"measurement": "protection of NMJs of embryonic muscle against staining by fluorescent α-BgTX", "setting": "[5]", "result": "only partially protect"},
      {"measurement": "block of IACh", "setting": "rat α4β2 nAChR", "result": "failed to block IACh"},
      {"measurement": "inhibition of TMR α-BgTX binding", "setting": "[6]", "result": "did not interfere with the binding of α-BgTX"},
      {"measurement": "block of action potentials evoked by direct stimulation", "setting": "[7]", "result": "essentially no effect"},
      {"measurement": "TMR α-BgTX staining in presence of αM-MIIIJ", "setting": "[8]", "result": "Minimal TMR α-BgTX staining"},
      {"measurement": "Ion-Channel Target", "setting": "muscle nAChR", "result": "muscle nAChR"},
      {"measurement": "IC50 relative to zebrafish nAChRs", "setting": "human αβδε nAChR", "result": "~ 100 times"},
      {"measurement": "block of MEPSPs", "setting": "[9]", "result": "> 80", "unit": "%"},
      {"measurement": "block of synaptic responses", "setting": "[10]", "result": "reversibly blocked"},
      {"measurement": "effect on indirectly-evoked action potentials", "setting": "[11]", "result": "essentially unaffected"},
      {"measurement": "pIC50", "setting": "[12]", "result": 7.00},
      {"measurement": "pIC50", "setting": "zebrafish αβδγ nAChR", "result": 7.21},
      {"measurement": "block of action potentials evoked by nerve stimulation", "setting": "[13]", "result": "completely blocked action potentials"}
    ]}
  ]
}
